Source: PubChem BioAssay AID1259414 (Drosophila RNAi Screening Center, 2018)
Screen: 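Fly genes that alter Wolbachia amount inside host cells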 (primary screen). Cells: Drosophila JW18 cells infected with Wolbachia. Reagent: long dsRNA against Drosophila genes, 0.25 µg dsRNA per well of a 384-well plate. Duration: 5 days. Conditions: cells persistently infected with Wolbachia before knock-down; no added drug. Detection: 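Automated imaging of bacterial rRNA staining divided by host cell count, reported as plate-normalised robust z-score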. Reading the numbers: Wolbachia per cell robust z: higher = more Wolbachia per host cell than the plate typical. Active means: 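Active if absolute robust z reaches 1.5 in two or more of three replicates, leaving out multi- or no-target dsRNAs, genes unexpressed in JW18 and A1 wells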.
The deposit covers about 24,000 reagents; shown is a random part of those that have a named target and a result. In the full data, about 1,210 (5%) are marked active. 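Inactive calls also include excluded dsRNAs with several or no targets, genes unexpressed in JW18, and well A1, regardless of score.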 The numbers tell different reagents against one gene apart. Reagent sequences are not shown.

Against CG4461 #1, the entry reads Wolbachia per cell robust z, rep 1 = -0.635; Wolbachia per cell robust z, rep 2 = 1.32; Wolbachia per cell robust z, rep 3 = 0.632; inactive.
After knock-down of CG4461 #2, the record shows Wolbachia per cell robust z, rep 1 = 0.869; Wolbachia per cell robust z, rep 2 = 0.00896; Wolbachia per cell robust z, rep 3 = 0.305; inactive.
Depletion of CG4461 #3 came out at: Wolbachia per cell robust z, rep 1 = -5.5; Wolbachia per cell robust z, rep 2 = -0.424; Wolbachia per cell robust z, rep 3 = -0.5; inactive.
With knock-down of brat #1 the results were Wolbachia per cell robust z, rep 1 = 1.84; Wolbachia per cell robust z, rep 2 = 1.69; Wolbachia per cell robust z, rep 3 = 0.859; inactive.
With knock-down of brat #2, the screen gave Wolbachia per cell robust z, rep 1 = -0.167; Wolbachia per cell robust z, rep 2 = -1.47; Wolbachia per cell robust z, rep 3 = -0.729; inactive.
With knock-down of brat #3, the record shows Wolbachia per cell robust z, rep 1 = 0.9; Wolbachia per cell robust z, rep 2 = -0.109; Wolbachia per cell robust z, rep 3 = 0.704; inactive.
After knock-down of brat #4 the results were Wolbachia per cell robust z, rep 1 = 0.123; Wolbachia per cell robust z, rep 2 = 1.14; Wolbachia per cell robust z, rep 3 = 0.896; inactive.
Depletion of Regnase-1 resulted in: Wolbachia per cell robust z, rep 1 = 1.36; Wolbachia per cell robust z, rep 2 = 1.8; Wolbachia per cell robust z, rep 3 = -0.081; inactive.
For CG31343, the values are Wolbachia per cell robust z, rep 1 = 0.41; Wolbachia per cell robust z, rep 2 = 0; Wolbachia per cell robust z, rep 3 = 0.237; inactive.
After knock-down of CG10462 the results were Wolbachia per cell robust z, rep 1 = -3.94; Wolbachia per cell robust z, rep 2 = 1.39; Wolbachia per cell robust z, rep 3 = 0.557; inactive.
For Nca, the values are Wolbachia per cell robust z, rep 1 = -1.47; Wolbachia per cell robust z, rep 2 = -1.43; Wolbachia per cell robust z, rep 3 = -0.581; inactive.
CG14855 #1 scored Wolbachia per cell robust z, rep 1 = 0.786; Wolbachia per cell robust z, rep 2 = -0.701; Wolbachia per cell robust z, rep 3 = 1.16; inactive.
CG14855 #2 showed Wolbachia per cell robust z, rep 1 = -0.729; Wolbachia per cell robust z, rep 2 = -0.607; Wolbachia per cell robust z, rep 3 = -1.36; inactive.
For CG14855 #3, the entry reads Wolbachia per cell robust z, rep 1 = -0.794; Wolbachia per cell robust z, rep 2 = 0.536; Wolbachia per cell robust z, rep 3 = -2.05; inactive.

3 entries already listed, ordered by “Wolbachia per cell robust z, rep 3”, ascending.
brat #2 — Wolbachia per cell robust z, rep 1 = -0.167; Wolbachia per cell robust z, rep 2 = -1.47; Wolbachia per cell robust z, rep 3 = -0.729; activity call = inactive
brat #3 — Wolbachia per cell robust z, rep 1 = 0.9; Wolbachia per cell robust z, rep 2 = -0.109; Wolbachia per cell robust z, rep 3 = 0.704; activity call = inactive
brat #4 — Wolbachia per cell robust z, rep 1 = 0.123; Wolbachia per cell robust z, rep 2 = 1.14; Wolbachia per cell robust z, rep 3 = 0.896; activity call = inactive

The listing continues.
Against CG30187, the entry reads Wolbachia per cell robust z, rep 1 = -0.205; Wolbachia per cell robust z, rep 2 = -0.775; Wolbachia per cell robust z, rep 3 = -0.599; inactive.
Knock-down of Lcp65Ag2 gave: Wolbachia per cell robust z, rep 1 = -0.426; Wolbachia per cell robust z, rep 2 = -1.37; Wolbachia per cell robust z, rep 3 = -1.9; inactive.
CG10565 showed Wolbachia per cell robust z, rep 1 = -0.144; Wolbachia per cell robust z, rep 2 = -1.03; Wolbachia per cell robust z, rep 3 = 0.726; inactive.
For nyo #1, the entry reads Wolbachia per cell robust z, rep 1 = 0.84; Wolbachia per cell robust z, rep 2 = -0.0952; Wolbachia per cell robust z, rep 3 = -4.18; inactive.
After knock-down of nyo #2 the results were Wolbachia per cell robust z, rep 1 = -2.38; Wolbachia per cell robust z, rep 2 = 0.783; Wolbachia per cell robust z, rep 3 = 2.02; inactive.
For Pat1 #1 the deposit lists Wolbachia per cell robust z, rep 1 = 0.893; Wolbachia per cell robust z, rep 2 = -2.95; Wolbachia per cell robust z, rep 3 = 1.12; inactive.
Pat1 #2 scored Wolbachia per cell robust z, rep 1 = -0.201; Wolbachia per cell robust z, rep 2 = -0.46; Wolbachia per cell robust z, rep 3 = -0.616; inactive.
Depletion of CG10996 resulted in: Wolbachia per cell robust z, rep 1 = -2.84; Wolbachia per cell robust z, rep 2 = 0.978; Wolbachia per cell robust z, rep 3 = -2.25; active.
Depletion of CG42246 resulted in: Wolbachia per cell robust z, rep 1 = -0.186; Wolbachia per cell robust z, rep 2 = -2.13; Wolbachia per cell robust z, rep 3 = -0.528; inactive.
For CR31054 the deposit lists Wolbachia per cell robust z, rep 1 = 0.911; Wolbachia per cell robust z, rep 2 = 1.06; Wolbachia per cell robust z, rep 3 = 1.27; inactive.
